Measurements: patent US20230272050A1, “BINDING PROTEIN SPECIFIC FOR THE SPIKE PROTEIN OF SEVERE ACUTE RESPIRATORY SYNDROME CORONA VIRUS 2 (SARS-COV-2)” (priority 2020, published 2023)

Target: SARS-CoV-2 S protein RBD (E484Q, L452R) (Severe acute respiratory syndrome coronavirus 2, E484Q/L452R)

B1: 212896 (protein)
chain: AVLDIDQHAATEEIWWLPNLTKQQKVWFIMSLTQDPSVSLEILAEAKKLNDAQAPKIAAQHDKIQQAADKEILHLPNLTEEQRNKFRQSLRDDPSVSAEILAEAKKLNDAQAPKIAAQHDKIQQAADKEILHLPNLTEEQRNKFRQSLRDDPSVSAEILAEAKKLNDAQAPKIAAQHDKIQQAADKEILHLPNLTEEQRNKFRQSLRDDPSVSAEILAEAKKLNDAQAPKC
For B1, the “binding affinity to RBD (E484Q, L452R) (B.1.617.1), qualitative” value was “showed binding affinity”.
